Measured values from several laboratories, pooled; numbers as filed in NIAID ChemDB.

All rows: whole-cell or culture tests; organism: HIV-1; measure: inhibition

Lines come from different laboratories, so protocols vary.

structure	cells	tested at	strain or isolate	method	conditions	result
COCCCCCCCCCCC(=O)O	CEM + CEM-SS	200 µM	IIIB	cytopathic effect / XTT		18.4%
Cc1nc(C(=O)C2COCCN2)cc2c1[nH]c1ccccc12	CEM-GFP	27.12 µM	NL4-3	p24 / ELISA / antigen		0%
C[C@H]1COc2c(N3CCN(C)CC3)c(F)cc3c(=O)c(C(=O)O)cn1c23	MT-4	50 µg/mL	IIIB	cytopathic effect / XTT		10%
CN=C1CN=C(c2ccc[nH]2)c2cc(Cl)ccc2N1	Jurkat cells	1 µM	N1T	antigen		90%
O=c1[nH]cnc2c1ncn2[C@H]1CC[C@@H](CO)O1	PBMC	0.5 µM	IIIB	p24		40%
CC(C)=CCOc1c2occc2cc2ccc(=O)oc12	MT-2	25 µM	NL4-3 Recombinant	luciferase		60%
Nc1ncnc2c1ncn2CC#CCO	ATH8	100 µM	IIIB	cytopathic effect / trypan blue		15%
C[C@@H]1CC[C@H]2[C@@H](C)C(=O)O[C@@H]3OC4(C)CC[C@@H]1[C@]32OO4	PBMC	10 µM	NL4-3	p24 / ELISA / antigen		76%
O=C(O)c1cn2c3c(c(N4CCN(c5ccccn5)CC4)c(F)cc3c1=O)OCC2CF	MT-4	10 µg/mL	IIIB	cytopathic effect / XTT		90%
OCCN1CCN(CCCN2c3ccccc3Sc3ccc(Cl)cc32)CC1	MT-4	10 µg/mL	LAV			94%
COC(=O)C1Cc2c(c3ccccc3n2C)C(C)=N1	CEM-GFP	19.66 µM	NL4-3	p24 / ELISA / antigen		0%
CC(C)CN(C[C@@H](O)[C@H](Cc1ccccc1)NC(=O)[C@@H](NC(=O)CNCc1cccc(F)c1)C(C)(C)C)S(=O)(=O)c1cccc(N)c1	MT-2	0.011 µM	Clinical isolate E	virus yield		90%
Nc1nc2c(ncn2C=C=CCO)c(=O)[nH]1	ATH8	500 µM	IIIB	cytopathic effect / trypan blue		0%
O=C(O)/C=C/c1ccc[c]([Sb](=[O])([OH])[OH])c1	MAGI	10 µM	92BR019 R5 clinical isolate	β-galactosidase		53.7%
C(=C\c1ccccc1)/CN1CCN(C(c2ccccc2)c2ccccc2)CC1	MT-4	100 µg/mL	LAV			0%
COC(=O)c1cc2c([nH]c3ccccc32)c(C=O)n1	CEM-GFP	9.83 µM	NL4-3	p24 / ELISA / antigen		78.17%
C[C@H](CC(=O)C[C@@H](C)[C@H]1CC(=O)[C@@]2(C)C3=C(C(=O)C[C@]12C)[C@@]1(C)CCC(=O)C(C)(C)[C@@H]1C[C@@H]3O)C(=O)O	MT-4	1000 µM		cytopathic effect / microscopy		0%
CC1(C)[C@@H](O[C@H]2O[C@H](C(=O)O)[C@@H](O)[C@H](O)[C@H]2O[C@@H]2O[C@H](C(=O)O)[C@@H](O)[C@H](O)[C@H]2O)CC[C@]2(C)[C@H]3C(=O)C=C4[C@@H]5C[C@@](C)(C(=O)O)CC[C@]5(C)CC[C@@]4(C)[C@]3(C)CC[C@@H]12	MT-4	500 µg/mL	Clinical isolate GVK 4046	ELISA		94%
CCn1c2ccccc2c2cc(C(=O)OC)nc(C)c21	CEM-GFP	3.73 µM	NL4-3	p24 / ELISA / antigen		0%
O=C(O)CCCCCCCCCCCOc1ccccc1	CEM + CEM-SS	20 µM	IIIB	cytopathic effect / XTT		18%
Nc1ncnc2c1ncn2[C@H]1CC[C@@H](CO)O1	ATH8	100 µM	IIIB	cytopathic effect / trypan blue		90%
Cc1cn([C@H]2C[C@H](N=[N+]=[N-])[C@@H](CO)O2)c(=O)[nH]c1=O	U-937	0.036 µg/mL	IIIB	p24 / ELISA		90%
Nc1nc2c(ncn2CC(O)CCO)c(=O)[nH]1	ATH8	10 µM	IIIB	cytopathic effect / trypan blue		16%
COC(=O)c1cc2c3ccccc3n(-c3ccccc3)c2c(C)n1	CEM-GFP	15.13 µM	NL4-3	p24 / ELISA / antigen		0%
Nc1ccn(CC#CCO)c(=O)n1	ATH8	100 µM	IIIB	cytopathic effect / trypan blue		8%
O=C(O)P(=O)(O)O	H9	150 µM	IIIB	p24 / antigen	6 d	80%
Oc1ccc(/C=C/c2cc(O)cc(O)c2)cc1	PBMC	10 µM	EJC-X1	p24	clinical isolate	35%
Cc1c(N)nc([C@H](CC(N)=O)NC[C@H](N)C(N)=O)nc1C(=O)N[C@H](C(=O)N[C@H](C)[C@@H](O)[C@H](C)C(=O)N[C@H](C(=O)NCCc1nc(-c2nc(C(=O)NCCC[S+](C)C)cs2)cs1)[C@@H](C)O)C(O[C@@H]1O[C@@H](CO)[C@@H](O)[C@H](O)[C@@H]1O[C@H]1O[C@H](CO)[C@@H](O)[C@H](OC(N)=O)[C@@H]1O)c1cnc[nH]1	Macrophage + Monocytes/macrophages	0.3 µg/mL	BaL	XTT / p24		39%
Cc1cn(CC(=O)CCO)c(=O)[nH]c1=O	ATH8	10 µM	IIIB	cytopathic effect / trypan blue		22%
CC(C)NCC(O)COc1cccc2[nH]ccc12	MT-4	100 µg/mL	LAV			0%
C[C@H](CCC=C(CO)CO)[C@H]1CC[C@@]2(C)C3=CC[C@H]4C(C)(C)C(=O)CC[C@]4(C)C3=CC[C@]12C	MT-4	7.8 µM		cytopathic effect / microscopy		~100%
Cc1cn([C@H]2C[C@H](N=[N+]=[N-])[C@@H](CO)O2)c(=O)[nH]c1=O	PBL(PHA STIM.) + PBL	5 µM	CD 451	p24 / ELISA		100%
CC(C)[C@@H](C)/C=C/[C@@H](C)[C@H]1CC[C@H]2C3=CC=C4C[C@@H](O)CC[C@]4(C)[C@H]3CC[C@]12C	MT-4	1000 µM		cytopathic effect / microscopy		0%
CCCC(=O)O[C@H]1CN2CC[C@H](O)[C@@H]2[C@@H](O)[C@@H]1O	H9	4 µM	U455			90%
CC(C)CN(C[C@@H](O)[C@H](Cc1ccccc1)NC(=O)[C@@H](NC(=O)CNCc1cccc(F)c1)C(C)(C)C)S(=O)(=O)c1ccc(N)cc1	MT-2	0.011 µM	THAI 9466	virus yield		90%
O=C(O)CCCCCCCCCCOc1ccccc1	CEM + CEM-SS	20 µM	IIIB	cytopathic effect / XTT		9.4%
CC(=O)O[C@@H]1C(=O)C2=C(C(=O)C[C@H]3C(C)(C)[C@@H](O)CC[C@]23C)[C@]2(C)C(=O)C[C@H]([C@@H](C)CC(=O)C[C@@H](C)C(=O)O)[C@@]12C	MT-4	1000 µM		cytopathic effect / microscopy		0%
Cc1cn([C@H]2CC[C@@H](CO)O2)c(=O)[nH]c1=O	ATH8	100 µM	IIIB	cytopathic effect / trypan blue		68%
O=C1N(Cc2ccc(CO)cc2)[C@H](Cc2ccccc2)[C@H](O)[C@@H](O)[C@@H](Cc2ccccc2)N1Cc1ccc(CO)cc1	MT-2	0.15 µM	RF	virus yield		90%
C[C@@H]1[C@H](O)[C@@H](C)/C=C/C=C/C=C/C=C/C=C/C=C/C=C/[C@H](O[C@@H]2O[C@H](C)[C@@H](O)[C@H](N)[C@@H]2O)CC2O[C@](O)(CC(O)C(O)CCC(O)CC(O)CC(O)CC(=O)O[C@H]1C)CC(O)C2C(=O)O.O=S(=O)(O)O	PHA-PBMC + PBMC	3.9 µg/mL	KK-1	fluorescence		76.5%
Nc1ncnc2c1ncn2CCCCO	ATH8	100 µM	IIIB	cytopathic effect / trypan blue		16%
Cc1ncc(CSSCc2cnc(C)c(O)c2CO)c(CO)c1O	MT-4	100 µg/mL	LAV			0%
O=C(O)CCOCCCCCCCCCl	CEM + CEM-SS	6.3 µM	IIIB	cytopathic effect / XTT		7%
Nc1ncnc2c1ncn2C=C=CCCl	ATH8	100 µM	IIIB	cytopathic effect / trypan blue		0%
CC(C)(C)NCC(O)c1ccc(O)c(CO)c1	MT-4	100 µg/mL	LAV			0%

Repeating the final 6 entries:

| structure | cells | tested at | strain or isolate | method | conditions | result |
|---|---|---|---|---|---|---|
| C[C@@H]1[C@H](O)[C@@H](C)/C=C/C=C/C=C/C=C/C=C/C=C/C=C/[C@H](O[C@@H]2O[C@H](C)[C@@H](O)[C@H](N)[C@@H]2O)CC2O[C@](O)(CC(O)C(O)CCC(O)CC(O)CC(O)CC(=O)O[C@H]1C)CC(O)C2C(=O)O.O=S(=O)(O)O | PHA-PBMC + PBMC | 3.9 µg/mL | KK-1 | fluorescence |  | 76.5% |
| Nc1ncnc2c1ncn2CCCCO | ATH8 | 100 µM | IIIB | cytopathic effect / trypan blue |  | 16% |
| Cc1ncc(CSSCc2cnc(C)c(O)c2CO)c(CO)c1O | MT-4 | 100 µg/mL | LAV |  |  | 0% |
| O=C(O)CCOCCCCCCCCCl | CEM + CEM-SS | 6.3 µM | IIIB | cytopathic effect / XTT |  | 7% |
| Nc1ncnc2c1ncn2C=C=CCCl | ATH8 | 100 µM | IIIB | cytopathic effect / trypan blue |  | 0% |
| CC(C)(C)NCC(O)c1ccc(O)c(CO)c1 | MT-4 | 100 µg/mL | LAV |  |  | 0% |

Inhibition is in % at the dose shown (toxicity tests: loss of growth or viability). An empty or dashed field is not shown.